Target: MERS-CoV (SARS-CoV-2) Spike Protein S1 (aa 1-725, His Tag) (Sino 40069-V08H) (MERS-CoV, UniProt K9N5Q8 18-725)

Row | Binder | Binding signal (MFI)
1 | mAb10985 (antibody, V domains shown) VH: EVQLVESGGGLVQPGRSLRLSCAASGFTFDDYAMHWVRQAPGKGLEWVSGISWNRGSIGYADSVKGRFTISRDNAKNSLYLQMSSLRAEDTALYYCAKDGERWDSVVVPSARNGMDVWGQGTTVTVSS VL: QSVLTQPPSVSGAPGQRVTISCTGSSSNIGAGYDVHWYQQLPGTAPKLLIYGNSNRPSGVPDRFSGSKSGTSASLAITGLQAEDEADYYCQSYDSSLSGSYVFGTGTKVTVLG | 14
2 | mAb10984 (antibody, V domains shown) VH: EVQLVESGGGLVQPGGSLRLSCAASGLTVNRNYMSWVRQAPGKGLEWVSLIYSGGSTYYADSVKGRFTISRDNSKNTLYLQMNSLRLEDTAVYYCARGELGIPYGMDVWGQGTTVTVSS VL: QSVLTQPPSVSAAPGQKVTISCSGSSSNIGNNYVSWYQQLPGTAPKLLIYDNNKRPSGIPDRFSGSKSGTSATLGITGLQTGDEADYYCGTWDSSLSAGVFGGGTKLTVLG | 13
